Measured values from several laboratories, pooled; numbers as filed in NIAID ChemDB.

Shared fields: tests in culture; organism: Aspergillus fumigatus; endpoint: MIC

An empty or dashed field is not shown. Neighbouring rows are from separate reports.

SMILES	strain	method	value
CN(Cc1ccc(S(=O)(=O)Nc2ccccc2)cc1)CC(O)(Cn1cncn1)c1ccc(F)cc1F	98 003	resazurin	3.08 µg/mL
CCCCCCCCCCCC(=O)NC(CCCN)C(=O)NC(CCCN)C(=O)NC(CCCN)C(N)=O	ATCC 42203	broth dilution	12.5 µg/mL
CCCCCCCCC[C@@H]1CC(=O)NCC(=O)N[C@@H](CCCCN)C(=O)N[C@@H](CC(C)(C)C)C(=O)N1			32 µg/mL
CN1CCN(c2n[nH]c(N3C(=O)CS[C@@H]3c3ccc(Cl)cc3)n2)CC1	168.95	broth dilution	100 µg/mL
CCCCCCCCCCC[C@@H]1CC(=O)NCC(=O)N[C@@H](CCCCN)C(=O)N[C@@H](CC(C)C)C(=O)N1	TIMM0063		>128 µg/mL
CC(C)c1ccc(S(=O)(=O)Nc2ccc(CN(C)CC(O)(Cn3cncn3)c3ccc(F)cc3F)cc2)cc1	98 003	resazurin	2.89 µg/mL
CCCCCCCCCC[C@@H]1NC(=O)[C@H](CC(C)(C)C)NC(=O)[C@H](CCCCN)NC(=O)CNC(=O)[C@H]1O			32 µg/mL
C[C@H]1[C@H](O)[C@@H](C)/C=C/C=C/C=C/C=C/C=C/C=C/C=C/[C@H](O[C@@H]2O[C@H](C)[C@@H](O)[C@H](N)[C@@H]2O)C[C@@H]2O[C@](O)(C[C@@H](O)C[C@@H](O)CC[C@H](O)[C@@H](O)C[C@@H](O)CC(=O)O[C@H]1C)C[C@H](O)[C@H]2C(=O)O			0.5 µg/mL
CN(Cc1ccc(S(=O)(=O)NC(C)(C)C)cc1)CC(O)(Cn1cncn1)c1ccc(F)cc1F	98 003	resazurin	1.88 µg/mL
CCCCCCCCCCCCCCCC(=O)NC(CCCN)C(=O)NC(CCCN)C(=O)NC(CCCN)C(N)=O	ATCC 42203	broth dilution	3.1 µg/mL
CN1CCN(c2n[nH]c(N3C(=O)CS[C@@H]3c3ccc4c(c3)OCO4)n2)CC1	165.86	broth dilution	50 µg/mL
CCC(C)CC(C)CCCCCCCCC(=O)N[C@H]1C[C@@H](O)[C@H](NCCN)NC(=O)[C@@H]2[C@@H](O)CCN2C(=O)[C@H]([C@H](O)CCN)NC(=O)[C@H]([C@H](O)[C@@H](O)c2ccc(O)cc2)NC(=O)[C@@H]2C[C@@H](O)CN2C(=O)[C@H]([C@@H](C)O)NC1=O	MF5668		0.06 µg/mL
COc1ccc([C@H]2SCC(=O)N2c2nc(N3CCN(C)CC3)n[nH]2)cc1OC	168.95	broth dilution	10 µg/mL
CCCCCCCCC[C@@H]1NC(=O)[C@H](CC(C)(C)C)NC(=O)[C@H](CCCN)NC(=O)CNC(=O)C1(F)F			16 µg/mL
CN(Cc1ccc(S(=O)(=O)Nc2ccc([N+](=O)[O-])cc2)cc1)CC(O)(Cn1cncn1)c1ccc(F)cc1F	98 003	resazurin	2.57 µg/mL
Cc1ccc(C(C)C)cc1O	ATCC 46645		0.16 µg/mL
CCCCCCCCC[C@@H]1CC(=O)NCC(=O)N[C@@H](CCC(=O)O)C(=O)N[C@@H](C(C)C)C(=O)N1	TIMM0063		>64 µg/mL
C[C@@H]1[C@@H](COCC(=O)O)C[C@@H](O[C@H]2[C@H](O)[C@@H](N(Cc3ccc(Cl)cc3)CC(O)C[N+](C)(C)C)[C@H](O[C@H]3[C@H](O)[C@@H](N(Cc4ccc(Cl)cc4)CC(O)C[N+](C)(C)C)[C@H](C)O[C@@H]3COCC(=O)O)O[C@@H]2COCC(=O)O)[C@H](N(Cc2ccc(Cl)cc2)CC(O)C[N+](C)(C)C)[C@H]1O	RCMB 02568	broth dilution	30.15 µg/mL
CC(C)NS(=O)(=O)c1ccc(CN(C)CC(O)(Cn2cncn2)c2ccc(F)cc2F)cc1	98 003	resazurin	2.35 µg/mL
CCOC(=O)c1sc2cc(-c3cccnc3)oc(=O)c2c1N	AF-27		>100 µg/mL
CCCCCCCCCCC[C@@H]1CC(=O)NCC(=O)N[C@@H](CCCCN)C(=O)N[C@@H](C(C(C)C)C(C)(C)C)C(=O)N1	TIMM0063		32 µg/mL
CSc1cc(-c2ccc(-c3cccnc3)cc2)c(C(=O)O)s1	AF-27		>100 µg/mL
CCCCCCCCC[C@@H]1CC(=O)NCC(=O)N[C@@H](CCCCN(C)C)C(=O)N[C@@H](C(C)C)C(=O)N1	TIMM0063		>128 µg/mL
CSc1cc(-c2ccc(Br)cc2)c(C(=O)O)s1	AF-27		>100 µg/mL
CCCCCCCC(=O)NC(CCCN)C(=O)NC(CCCN)C(N)=O	ATCC 42203	broth dilution	>100 µg/mL
CN(Cc1ccc(NS(=O)(=O)c2ccc([N+](=O)[O-])cc2)cc1)CC(O)(Cn1cncn1)c1ccc(F)cc1F	98 003	resazurin	3.57 µg/mL
CCOC(=O)c1sc2cc(-c3cc(F)c(Cl)cc3Cl)oc(=O)c2c1N	AF-27		>100 µg/mL
Cc1ccc(CN(CC(O)C[N+](C)(C)C)[C@@H]2[C@@H](O)[C@H](O[C@@H]3O[C@H](COCC(=O)O)[C@@H](O[C@@H]4C[C@H](COCC(=O)O)[C@@H](C)[C@H](O)[C@H]4N(Cc4ccc(C)cc4)CC(O)C[N+](C)(C)C)[C@H](O)[C@H]3N(Cc3ccc(C)cc3)CC(O)C[N+](C)(C)C)[C@@H](COCC(=O)O)O[C@H]2C)cc1	RCMB 02568	broth dilution	125 µg/mL
CCCCCCCCC[C@@H]1CC(=O)NCC(=O)N[C@@H](CCCCN(C)Cc2ccccc2)C(=O)N[C@@H](C(C)C)C(=O)N1	TIMM0063		>128 µg/mL
C=C1C(=O)OCC1COC(=O)CCCC(C)C	IFO8866		25 µg/mL
CCCCCCCCC[C@@H]1CC(=O)NCC(=O)N[C@@H](CCCCNC)C(=O)N[C@@H](C(C)C)C(=O)N1	TIMM0063		>128 µg/mL
COc1ccc([C@H]2SC(C)C(=O)N2c2nc(N3CCN(C)CC3)n[nH]2)cc1OC	168.95	broth dilution	>100 µg/mL
CCCCCCCCCC[C@@H]1CC(=O)NCC(=O)N[C@@H](CCCCN)C(=O)N[C@@H](CC(C)(C)C)C(=O)N1			8 µg/mL
C[C@@H]1[C@@H](COCC(=O)O)C[C@@H](O[C@H]2[C@H](O)[C@@H](N(Cc3ccc(Br)cc3)CC(O)C[N+](C)(C)C)[C@H](O[C@H]3[C@H](O)[C@@H](N(Cc4ccc(Br)cc4)CC(O)C[N+](C)(C)C)[C@H](C)O[C@@H]3COCC(=O)O)O[C@@H]2COCC(=O)O)[C@H](N(Cc2ccc(Br)cc2)CC(O)C[N+](C)(C)C)[C@H]1O	RCMB 02568	broth dilution	20 µg/mL

A second listing of 4 rows from above:

{"SMILES": "CCCCCCCC(=O)NC(CCCN)C(=O)NC(CCCN)C(N)=O", "strain": "ATCC 42203", "method": "broth dilution", "value": ">100 µg/mL"}
{"SMILES": "CCCCCCCCCCC[C@@H]1CC(=O)NCC(=O)N[C@@H](CCCCN)C(=O)N[C@@H](C(C(C)C)C(C)(C)C)C(=O)N1", "strain": "TIMM0063", "value": "32 µg/mL"}
{"SMILES": "CN(Cc1ccc(NS(=O)(=O)c2ccc([N+](=O)[O-])cc2)cc1)CC(O)(Cn1cncn1)c1ccc(F)cc1F", "strain": "98 003", "method": "resazurin", "value": "3.57 µg/mL"}
{"SMILES": "CC(C)c1ccc(S(=O)(=O)Nc2ccc(CN(C)CC(O)(Cn3cncn3)c3ccc(F)cc3F)cc2)cc1", "strain": "98 003", "method": "resazurin", "value": "2.89 µg/mL"}